{"source": "PubChem BioAssay AID504761 (Drosophila RNAi Screening Center, 2011)", "purpose": "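Insect host genes that dengue virus relies on to spread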 (primary screen)", "cell system": "D.Mel-2 cells from Drosophila", "reagent": "long dsRNA against Drosophila genes", "challenge": "infection with dengue virus type 2; dose and infection time not stated", "read-out": "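Per well on two replicate plates, imaging gave the percent of cells positive for viral envelope protein, ranked by infection, and a nuclear count of cells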", "reading the numbers": "infection score: higher = more virus-infected cells", "call rule": "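Very low infection ranking in both replicate wells (chance probability at most 0.065), then a retest showing infection dropped 1.5-fold or more at p below 0.05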", "meaning of the calls": "active = confirmed: knock-down lowers infection; inactive = not picked or not confirmed", "note": "The screen tested about 22,000 reagents; this is a random part of those that have a named target and a result. In the full data, 116 (0.52%) got an active call. 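Calls depend on retest data that are not deposited; infection was ranked per plate without normalising between plates; the unit of the infection score is not given.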 Unmarked entries are inactive. Reagents against one gene are numbered here. Not all columns of the deposit are shown. Reagent sequences are not shown. Not stated in the record: the amount of reagent, the time to read-out."}
The opening 2 entries as a preview:
{"gene": "CG31406", "reagent no.": 1, "infection score, replicate 1": 0.66}
{"gene": "CG31406", "reagent no.": 2, "infection score, replicate 1": 13.7}

The list itself, from the first entry:
{"gene": "CG31406", "reagent no.": 1, "infection score, replicate 1": 0.66}
{"gene": "CG31406", "reagent no.": 2, "infection score, replicate 1": 13.7}
{"gene": "Mct1 (Monocarboxylate transporter 1)", "reagent no.": 1, "infection score, replicate 1": 14.7}
{"gene": "Mct1 (Monocarboxylate transporter 1)", "reagent no.": 2, "infection score, replicate 1": 23.1}
{"gene": "CCAP (Crustacean cardioactive peptide)", "reagent no.": 1, "infection score, replicate 1": 4.28}
{"gene": "CG32588", "reagent no.": 1, "infection score, replicate 1": 3.23}
{"gene": "side-VIII (sidestep VIII)", "reagent no.": 1, "infection score, replicate 1": 1.32}
{"gene": "side-VIII (sidestep VIII)", "reagent no.": 2, "infection score, replicate 1": 1.36}
{"gene": "side-VIII (sidestep VIII)", "reagent no.": 3, "infection score, replicate 1": 3.87}
{"gene": "side-VIII (sidestep VIII)", "reagent no.": 4, "infection score, replicate 1": 2.25}
{"gene": "side-VIII (sidestep VIII)", "reagent no.": 5, "infection score, replicate 1": 12.3}
{"gene": "Fem-1", "reagent no.": 1, "infection score, replicate 1": 2.27}
{"gene": "Fem-1", "reagent no.": 2, "infection score, replicate 1": 6.8}
